Results of unrelated studies side by side (data: NIAID ChemDB).

Common to all: tests in culture; organism: HIV-1; cell line: MT-4; read-out: EC50

An empty or dashed field is not shown.

CC(=O)Oc1ccc(/C=C/C(=O)O[C@H](C(=O)O)[C@H](OC(=O)/C=C/c2ccc(OC(C)=O)c(OC(C)=O)c2)C(=O)O)cc1OC(C)=O ; strain: NL4-3 ; changes: AMD2763-resistant ; value: >93 µM
CC(C)=CCc1cc([C@@H]2CC(=O)c3c(O)cc(O)cc3O2)cc(O)c1O ; strain: IIIB ; read by: MTT ; value: 11 µg/mL
CC(C)CN(C[C@@H](O)[C@H](Cc1ccccc1)NC(=O)O[C@H]1CCO[C@H]2OCC[C@H]21)S(=O)(=O)c1ccc2nc(NC3CC3)sc2c1 ; strain: NL4-3 ; changes: L10I I15V K20R L24I V32I M36I M46I I54V I62V L63P K70Q V82A L88M ; read by: p24 / luminescence ; value: 0.034 µM
Cc1cc(/C=C/c2ccccc2)cc(C)c1Oc1ccnc(Nc2ccc(C#N)cc2)n1 ; strain: IIIB ; changes: L100I ; read by: MTT ; value: 0.322 µM
O=c1c(-c2ccc(O)cc2)coc2cc(O)cc(O)c12 ; strain: IIIB ; read by: MTT ; value: >20 µg/mL
Cc1cc(C#Cc2cccc(N)c2)cc(C)c1Oc1ccnc(NC2CCN(Cc3ccc(S(N)(=O)=O)cc3)CC2)n1 ; strain: IIIB ; changes: Y188L ; read by: MTT ; value: 0.098 µM
CC(C)CN(C[C@@H](O)[C@H](Cc1ccccc1)NC(=O)O[C@H]1CCOC1)S(=O)(=O)c1ccc(N)cc1 ; strain: NL4-3 ; read by: p24 / luminescence ; value: 0.037 µM
Cc1cn([C@H]2C[C@H](N=[N+]=[N-])[C@@H](CO)O2)c(=O)[nH]c1=O ; strain: 126 3TC (RT-M184V) ; changes: RT-M184V ; read by: p24 ; value: 0.04 µM
Cc1cc(C#Cc2ccccc2)cc(C)c1Oc1ccnc(NC2CCN(Cc3ccc(S(N)(=O)=O)cc3)CC2)n1 ; strain: IIIB ; changes: RES056 ; read by: MTT ; value: >0.766 µM
CCc1cc(NCc2nc3c(Cl)ccc(Cl)c3o2)c(=O)[nH]c1C ; strain: NL4-3 ; changes: RT-L100I ; read by: p24 ; value: 0.2 µM
CO[P@](=O)(c1cc(C)cc(/C=C/C#N)c1)c1c(C(N)=O)[nH]c2ccc(Cl)cc12 ; strain: NL4-3 ; changes: Y181C ; read by: ELISA ; value: 0.0036 µM
CC(C)(C)NC(=O)[C@@H]1C[C@@H]2CCCC[C@@H]2CN1C[C@@H](O)[C@H](Cc1ccccc1)NC(=O)[C@H](CC(N)=O)NC(=O)c1ccc2ccccc2n1 ; strain: NL4-3 ; changes: PR-M46I V82T ; read by: p24 ; value: <0.025 µM
CC(C)(C)NC(=O)[C@@H]1C[C@@H]2CCCC[C@@H]2CN1C[C@@H](O)[C@H](Cc1ccccc1)NC(=O)[C@H](CC(N)=O)NC(=O)c1ccc2ccccc2n1 ; strain: NL4-3 ; changes: PR-D30N N88D ; read by: p24 ; value: <0.01 µM
CN[C@H]1CO[C@@H]2OCC[C@H](OC(=O)N[C@@H](Cc3cccc(OC)c3)[C@H](O)CN(CC(C)C)S(=O)(=O)c3ccc4nc(NC(C)C)sc4c3)[C@@H]21 ; strain: NL4-3 ; changes: L10I I15V K20R L24I V32I M36I M46I L63P K70Q V82A I84V L89M ; read by: p24 / luminescence ; value: 0.016 µM
CCC(C)Oc1cc(=O)[nH]c(Sc2cccc(OC)c2)n1 ; strain: IIIB ; read by: cytopathic effect / MTT ; value: 150 µM
COc1c(/C=C/C(=O)c2ccc(O)cc2)ccc(O)c1O ; strain: IIIB ; read by: cytopathic effect / MTT ; value: >20 µg/mL
C=C1[C@H](CO)[C@@H](O)C[C@@H]1n1cnc2c(=O)[nH]c(N)nc21 ; strain: IIIB ; changes: Y188L ; read by: MTT ; value: 0.017 µM
CC1(C)CCc2c(O)ccc([C@@H]3COc4cc(O)ccc4C3)c2O1 ; strain: IIIB ; read by: MTT ; value: >100 µg/mL
C#Cc1ccc(Nc2nccc(Oc3c(C)cc(-c4cn(Cc5ccc(C#N)cc5)nn4)cc3C)n2)cc1 ; strain: IIIB ; changes: L100I ; read by: MTT ; value: >7.18 µM
Cc1cc(C#CC2CC2)cc(C)c1Oc1ccnc(Nc2ccc(C#N)cc2)n1 ; strain: IIIB ; changes: K103N ; read by: MTT ; value: 0.013 µM
Cc1cn([C@H]2C[C@H](N=[N+]=[N-])[C@@H](CO)O2)c(=O)[nH]c1=O ; strain: AMR100 ; read by: cytopathic effect / trypan blue ; value: 0.19 µM
Cc1cc(C#Cc2ccccn2)cc(C)c1Oc1ccnc(Nc2ccc(C#N)cc2)n1 ; strain: IIIB ; changes: L100I ; read by: MTT ; value: ≥1.53 µM
COC(=O)N[C@H](C(=O)N[C@@H](Cc1ccccc1)[C@@H](O)CN(Cc1ccc(-c2ccccn2)cc1)NC(=O)[C@@H](NC(=O)OC)C(C)(C)C)C(C)(C)C ; strain: NL4-3 ; changes: L10I G48V I54V A71V I84V L90M SQV resistant ; value: >1 µM
C#Cc1ccc(Nc2nccc(Oc3c(C)cc(-c4cn(Cc5ccc(C(N)=O)cc5)nn4)cc3C)n2)cc1 ; strain: RES056 ; read by: MTT ; value: >13.84 µM
CC(C)=CCc1cc(C(=O)/C=C/c2ccc(O)cc2)c(O)cc1O ; strain: IIIB ; read by: cytopathic effect / MTT ; value: >4 µg/mL
CN[C@H]1CO[C@@H]2OCC[C@H](OC(=O)N[C@@H](Cc3ccccc3)[C@H](O)CN(CC(C)C)S(=O)(=O)c3ccc4nc(NC5CC5)sc4c3)[C@@H]21 ; strain: NL4-3 ; changes: L23I E34Q K43I M46I I50L G51A L63P A71V V82A T91A ; read by: p24 / luminescence ; value: 0.0031 µM
CC(C)=CCc1c(O)ccc(-c2coc3cc(O)cc(O)c3c2=O)c1O ; strain: IIIB ; read by: MTT ; value: >100 µg/mL
CC(C)Nc1cccnc1N1CCN(C(=O)c2cc3cc(NS(C)(=O)=O)ccc3[nH]2)CC1 ; strain: MFE30(RT-P236L) ; changes: RT-P236L ; read by: antigen ; value: ~0.9 µM
Cc1cn([C@H]2C[C@H](N=[N+]=[N-])[C@@H](CO)O2)c(=O)[nH]c1=O ; strain: IIIB ; value: 0.01 µM
Cc1cc(C#Cc2ccc(C(=O)O)cc2)cc(C)c1Oc1ccnc(Nc2ccc(C#N)cc2)n1 ; strain: IIIB ; changes: Y188L ; read by: MTT ; value: 0.523 µM
CC(C)=CCN1c2cc(Cl)cc3[nH]c(=S)n(c23)C[C@@H]1C ; changes: RT-L74V ; value: <0.05 µM
C#Cc1ccc(Nc2nccc(Oc3c(C)cc(-c4cn(-c5ccc(C(=O)OC)cc5)nn4)cc3C)n2)cc1 ; strain: IIIB ; changes: F227L and V106A ; read by: MTT ; value: >242 µM
CCC(C)Oc1cc(N)nc(Sc2cccc(C)c2)n1 ; strain: IIIB ; read by: cytopathic effect / MTT ; value: 26 µM
CC(=O)Oc1ccc2cc(Br)ccc2c1Cc1c[nH]c2ccccc12 ; read by: MTT ; value: >19 µM
O=C1N(Cc2ccc(CO)cc2)[C@H](Cc2ccccc2)[C@H](O)[C@@H](O)[C@@H](Cc2ccccc2)N1Cc1ccc(CO)cc1 ; strain: NL4-3 ; changes: PR-L10R ; read by: p24 ; value: <0.2 µM
CCC(C)Oc1nc(Sc2ccccc2)cc(=O)[nH]1 ; strain: IIIB ; read by: cytopathic effect / MTT ; value: >147 µM
O=c1c(O)c(-c2ccc(O)c(O)c2)oc2cc(O)ccc12 ; strain: IIIB ; read by: MTT ; value: >12.5 µg/mL
C#Cc1ccc(Nc2nccc(Oc3c(C)cc(-c4cn(CC(=O)OC)nn4)cc3C)n2)cc1 ; strain: IIIB ; changes: L100I ; read by: MTT ; value: >10.35 µM
COC(=O)N[C@H](C(=O)N[C@@H](Cc1ccccc1)[C@@H](O)CN(Cc1ccc(-c2ccccn2)cc1)NC(=O)[C@@H](NC(=O)OC)C(C)(C)C)C(C)(C)C ; strain: NL4-3 ; changes: L10F M46I I54V V82A ; read by: p24 / luminescence ; value: >1 µM
CCC(C)Oc1cc(N)nc(Sc2cc(C)cc(C)c2)n1 ; strain: IIIB ; read by: cytopathic effect / MTT ; value: >88 µM
C#Cc1ccc(Nc2nccc(Oc3c(C)cc(-c4cn(Cc5ccccc5)nn4)cc3C)n2)cc1 ; strain: IIIB ; read by: MTT ; value: 0.049 µM
COc1ccc2c(Cc3c[nH]c4ccccc34)c(OC(C)=O)ccc2c1 ; read by: MTT ; value: >18 µM
Cc1cc(C#Cc2cccc(N)c2)cc(C)c1Oc1ccnc(NC2CCN(c3cccc(C(N)=O)c3)CC2)n1 ; strain: IIIB ; changes: Y181C ; read by: MTT ; value: 0.124 µM
COc1ccc2c(Cc3c[nH]c4ccc(OC)cc34)c(OC(C)=O)ccc2c1 ; read by: MTT ; value: 28 µM
CCOC(=O)c1oc2cc(O)cc(O)c2c(=O)c1Oc1ccc(OC)cc1OC ; strain: IIIB ; read by: cytopathic effect / MTT ; value: >25 µg/mL
CCCCSc1nc(Sc2ccccc2)cc(=O)[nH]1 ; strain: IIIB ; read by: cytopathic effect / MTT ; value: 65 µM
COc1ccc(S(=O)(=O)N(CC(C)C)C[C@@H](O)[C@H](Cc2ccccc2)NC(=O)O[C@H]2CO[C@H]3OCC(F)(F)[C@H]32)cc1 ; strain: NL4-3 ; changes: L10F M46I I54V V82A LPV resistant ; value: 0.03 µM
Cc1ccnc2c1NC(=O)c1cccnc1N2C1CC1 ; changes: RT-Y188L ; read by: cytopathic effect / MTT ; value: >10 µM
O=C(/C=C/c1ccc(O)cc1)c1ccc(O)cc1O ; strain: IIIB ; read by: MTT ; value: >20 µg/mL
NC(=O)c1ncn([C@@H]2O[C@H](CO)[C@@H](O)[C@H]2O)n1 ; read by: MTT ; value: >31 µM
Cc1cc(C#Cc2ccc(N)cc2)cc(C)c1Oc1ccnc(Nc2ccc(C#N)cc2)n1 ; strain: IIIB ; changes: Y181C ; read by: MTT ; value: 0.227 µM
CC(C)CN(C[C@@H](O)[C@H](Cc1ccccc1)NC(=O)O[C@H]1CCOC1)S(=O)(=O)c1ccc(N)cc1 ; strain: NL4-3 ; changes: L23I E34Q K43I M46I I50L G51A L63P A71V V82A T91A ATV resistant ; value: >1 µM
CC(=O)Nc1cccc(C#Cc2cc(C)c(Oc3ccnc(Nc4ccc(C#N)cc4)n3)c(C)c2)c1 ; strain: IIIB ; changes: F227L + V106A ; read by: MTT ; value: >0.844 µM
C#Cc1ccc(Nc2nccc(Oc3c(C)cc(-c4cn(Cc5cccc([N+](=O)[O-])c5)nn4)cc3C)n2)cc1 ; strain: RES056 ; read by: MTT ; value: >101 µM

For reference, 5 entries again:

structure	strain	changes	read by	value
COc1ccc2c(Cc3c[nH]c4ccc(OC)cc34)c(OC(C)=O)ccc2c1			MTT	28 µM
Cc1cn([C@H]2C[C@H](N=[N+]=[N-])[C@@H](CO)O2)c(=O)[nH]c1=O	AMR100		cytopathic effect / trypan blue	0.19 µM
Cc1cn([C@H]2C[C@H](N=[N+]=[N-])[C@@H](CO)O2)c(=O)[nH]c1=O	126 3TC (RT-M184V)	RT-M184V	p24	0.04 µM
CC1(C)CCc2c(O)ccc([C@@H]3COc4cc(O)ccc4C3)c2O1	IIIB		MTT	>100 µg/mL
Cc1cc(C#Cc2ccc(C(=O)O)cc2)cc(C)c1Oc1ccnc(Nc2ccc(C#N)cc2)n1	IIIB	Y188L	MTT	0.523 µM

ECn is the concentration giving n% inhibition of infection, replication or growth. Rows are shuffled and stem from different studies.